Data as given in ChEMBL document CHEMBL3580569, “N-Substituted Quinolinonyl Diketo Acid Derivatives as HIV Integrase Strand Transfer Inhibitors and Their Activity against RNase H Function of Reverse Transcriptase” (J Med Chem, 2015).

Target: Human immunodeficiency virus type 1 reverse transcriptase (Human immunodeficiency virus 1) (UniProt Q72547)
Experiment: Inhibition of RNase H function of HIV1 reverse transcriptase using DNA/RNA hybrid as substrate at 10 uM by fluorescence spectrometer analysis

| Compound | inhibition [%] |
| --- | --- |
| Cc1cc(C)cc(Cn2cc(C(=O)/C=C(\O)C(=O)O)c(=O)c3ccccc32)c1 | 47 |
| COc1ccccc1Cn1cc(C(=O)/C=C(\O)C(=O)O)c(=O)c2ccccc21 | 45.2 |
| Cc1ccc(Cn2cc(C(=O)/C=C(\O)C(=O)O)c(=O)c3ccccc32)c(C)c1 | 52 |
| O=C(O)/C(O)=C/C(=O)c1cn(Cc2ccccc2F)c2cc(Cl)ccc2c1=O | 36.5 |
| O=C(O)/C(O)=C/C(=O)c1cn(Cc2ccc([N+](=O)[O-])cc2)c2ccccc2c1=O | 42.4 |
| O=C(O)/C(O)=C/C(=O)c1cn(Cc2ccc(F)cc2F)c2ccccc2c1=O | 46 |
| O=C(O)/C(O)=C/C(=O)c1cn(Cc2ccc(Cl)cc2Cl)c2ccccc2c1=O | 68 |
| O=C(O)/C(O)=C/C(=O)c1cn(Cc2c(F)cccc2F)c2ccccc2c1=O [RDS-1984] | 57.9 |
| O=C(O)/C(O)=C/C(=O)c1cn(Cc2ccc(O)cc2)c2ccccc2c1=O | 44.4 |
